Compound potency records, mixed from different reports. Data source: NIAID ChemDB in PubChem.

Common to all: tests on isolated targets; species: HIV-1; target: Protease; read by: absorbance; measure: IC50

Conditions beyond the fields shown may differ between rows. ICn is the concentration giving n% inhibition.

CC[C@H](C)[C@H](NC(=O)OC(C)(C)C)C(=O)N[C@H]1[C@@H](CC(=O)N[C@H](C(=O)OC)C(C)C)CC[C@@H]1O ; result: >10 µM
Clc1ccc2c(c1)NCCC1(CCN(Cc3ccccc3)CC1)O2 ; result: >10 µM
CC(C)C[C@H](NC(=O)C[C@@H]1CC[C@@H](O)[C@@H]1NC(=O)[C@H](Cc1ccccc1)NC(=O)[C@@H](NC(=O)OCc1ccccc1)C(C)C)C(=O)NC(C)(C)C ; result: >10 µM
Cc1ccc2c(c1)NCCC1(CCN(Cc3ccccc3)CC1)O2 ; result: >10 µM
COC(=O)[C@@H](NC(=O)C[C@@H]1CC[C@H](NC(=O)[C@H](C)NC(=O)OC(C)(C)C)[C@H]1O)C(C)C ; result: >10 µM
CC1(C)CC[C@]2(C(=O)O)CC[C@]3(C)C(=CC[C@@H]4[C@@]5(C)CC[C@H](O)C(C)(C)[C@@H]5CC[C@]43C)[C@@H]2C1 ; result: 1 µM
COc1ccc(C2C3(CO)C4N(C(=O)Oc5ccccc5)C5C2(CO)C2N(C(=O)Oc6ccccc6)C3C4(CO)C(c3ccc(OC)cc3)C52CO)cc1 ; result: >50 µM
CC[C@H](C)[C@H](NC(=O)OC(C)(C)C)C(=O)N[C@@H]1[C@H](CC(=O)N[C@H](C(=O)OC)C(C)C)CC[C@H]1O ; result: 10 µM
Fc1ccc2c(c1)NCCC1(CCN(Cc3ccccc3)CC1)O2 ; result: >10 µM
CC(C)(C)OC(=O)N1C2C3(CO)C(c4ccccc4)C4(CO)C1C1(CO)C(c5ccccc5)C2(CO)C3N(C(=O)OC(C)(C)C)C41 ; result: 20.1 µM
CC[C@H](C)[C@H](NC(=O)OCc1ccccc1)C(=O)N[C@@H](Cc1ccccc1)C(=O)N[C@H]1CC[C@@H](CC(=O)N[C@H](C(=O)OC)C(C)C)[C@@H]1O ; result: 12 µM
C[C@@H]1O[C@@H](O[C@H]2[C@H](O[C@H]3CC[C@@]4(C)[C@@H](CC[C@]5(C)[C@@H]4CC=C4[C@@H]6CC(C)(C)CC[C@]6(C(=O)O)CC[C@]45C)[C@]3(C)CO)OC[C@H](O)[C@@H]2O)[C@H](O)[C@H](O)[C@H]1O ; result: 5 µM
O=C(Cc1ccccc1)N1C2C3(CO)C(c4ccccc4)C4(CO)C1C1(CO)C(c5ccccc5)C2(CO)C3N(C(=O)Cc2ccccc2)C41 ; result: ~50 µM
O/N=C1\CC2(CCN(Cc3ccccc3)CC2)Oc2ccc(OCc3ccccc3)cc21 ; result: >10 µM
COc1ccc(C2C3(CO)C4N(C(C)=O)C5C2(CO)C2N(C(C)=O)C3C4(CO)C(c3ccc(OC)cc3)C52CO)cc1 ; result: >25 µM
C[C@H](CCC(=O)O)[C@H]1CC[C@H]2[C@@H]3[C@H](O)C[C@@H]4C[C@H](O)CC[C@]4(C)[C@H]3C[C@H](O)[C@]12C ; result: 350 µM
CC(C)C[C@H](NC(=O)C[C@@H]1CC[C@H](NC(=O)[C@H](Cc2ccccc2)NC(=O)[C@@H](NC(=O)OCc2ccccc2)C(C)C)[C@H]1O)C(=O)NC(C)(C)C ; result: >10 µM
COC(=O)N1C2C3(CO)C(c4ccc(OC)cc4)C4(CO)C1C1(CO)C(c5ccc(OC)cc5)C2(CO)C3N(C(=O)OC)C41 ; result: >50 µM

Repeating the first 2 entries:

{"structure": "CC[C@H](C)[C@H](NC(=O)OC(C)(C)C)C(=O)N[C@H]1[C@@H](CC(=O)N[C@H](C(=O)OC)C(C)C)CC[C@@H]1O", "result": ">10 µM"}
{"structure": "Clc1ccc2c(c1)NCCC1(CCN(Cc3ccccc3)CC1)O2", "result": ">10 µM"}